Pooled drug test results. Numbers come from NIAID ChemDB, via PubChem.

Common to all: whole-cell or culture tests; species: Mycobacterium tuberculosis

MIC50, MIC90 and the like: level of inhibition, or share of isolates inhibited.

structure	strain	tested at	setting	read by	cell line	read-out	result
Cc1ccncc1C(=O)NN	H37Rv	12.5 µg/mL		BACTEC		inhibition	0%
CCCCCCCCCCCCCCCCNC(CCO)[C@H]1OC2OC(C)(C)OC2C2OC(C)(C)OC21	H37Ra					MIC	25 µg/mL
Cc1ccc(CS/C(N)=N/N=C/c2ccccc2)cc1	H37Rv		14 d	broth dilution		MIC	32 µM
Cc1c(N2CC3CCCNC3C2)c(F)cc2c(=O)c(C(=O)O)cn([C@@H]3C[C@@H]3F)c12	44 (RFP-resistant)					MIC	0.006 µg/mL
Cc1cc(C)c2c(=O)n(CC(O)CNc3ccc4c(c3)OCO4)sc2n1	H37Rv	12.5 µg/mL				inhibition	93%
CC(C)(C)c1ccc(CNC(=S)c2ccccc2O)cc1	My 331/88					MIC	1 µg/mL
N/C(=N\N=C\c1cc(Cl)ccc1O)SCc1ccc(F)cc1	H37Rv		21 d	broth dilution		MIC	16 µM
CC(=O)NC[C@H]1CN(c2ccc(N3CCOCC3)c(F)c2)C(=O)O1	Strain 325					MIC	0.25 µg/mL
CC(=O)OC[C@@]1(C)CCC[C@]2(C)[C@@H]1C[C@@H](O)[C@@]13C[C@@H](CC[C@@H]21)[C@@H](C)C3=O	H37Ra			resazurin / absorbance		MIC	1.56–3.125 µg/mL
CC(C)C[C@H](NC(=O)[C@@H](O)[C@H](N)Cc1ccccc1)C(=O)O	H37Rv			BACTEC		MIC bound	>12.5 µg/mL
COc1cc(C2=NN(C(=O)COc3ccc4ccccc4c3)[C@H](Cc3ccccc3)C2)c(C)cc1OCC(=O)O	Isoniazid-resistant					MIC	>6.25 µg/mL
Cc1ccc(CS/C(N)=N/N=C/c2ccccc2O)cc1	H37Rv		14 d	broth dilution		MIC	32 µM
CCCCNC(=O)CN1C(C(C)=O)=C(O)c2c(C)cc(C)nc2S1(=O)=O	H37Rv	12.5 µg/mL				inhibition	29%
CC1(C)CC(=O)C(C(=O)C(=O)NC2=C(Cl)C(=O)c3ccccc3C2=O)C(=O)C1	H37Rv			BACTEC		MIC bound	>12.5 µg/mL
Cc1cccc(O)c1C(=S)NCc1ccc(Cl)cc1	My 331/88					MIC	2 µg/mL
C=C1C(=O)[C@@]23[C@H](O)C[C@@H]4C(C)(C)CC[C@@H](OC(C)=O)[C@@]4(C)[C@@H]2CC[C@@H]1[C@H]3O	H37Ra			resazurin / absorbance		MIC	3.125–6.25 µg/mL
CC1C(=O)OC2CC[N+]3([O-])CC=C(COC(=O)C(C)(O)C1(C)O)C23	H37Rv			BACTEC		MIC bound	>12.8 µg/mL
C=C1C(=O)[C@@]23[C@H](O)C[C@@H]4C(C)(C)CCC[C@@]4(C)[C@@H]2CC[C@@H]1[C@H]3O	H37Rv			resazurin / absorbance		MIC	6.25–12.5 µg/mL
CCN(CC)C(=S)[S][Sn]([S]C(=S)N(CC)CC)([c]1ccccc1)[c]1ccccc1	H37Rv			BACTEC		MIC	1.6 µg/mL
N[C@@H]1CN(c2c(F)cc3c(=O)c(C(=O)O)cn([C@@H]4C[C@@H]4F)c3c2Cl)CC12CC2	22 strains (rifampin- isoniazid-resistant)					MIC90	1.56 µg/mL
O=C1c2cc(F)ccc2-n2c1nc1ccc(Cl)cc1c2=O	H37Rv					MIC	<1 µg/mL
O=c1ssc2ccccc12	H37Rv			BACTEC		MIC	≥12.5 µg/mL
Cc1ccc2nc(SCC(=O)N/N=C/c3ccc([N+](=O)[O-])cc3)n(-c3ccccc3)c(=O)c2c1	H37Rv					MIC	>6.25 µg/mL
CC[C@H]1OC(=O)[C@H](C)[C@@H](O[C@H]2C[C@@](C)(OC)[C@@H](O)[C@H](C)O2)[C@H](C)[C@@H](O[C@@H]2O[C@H](C)C[C@H](N(C)C)[C@H]2O)[C@](C)(OC)C[C@@H](C)C(=O)[C@H](C)[C@@H](O)[C@]1(C)O	27 strains (levofloxacin-susceptible)					MIC90	50 µg/mL
O=C1c2cc(F)cc(F)c2-n2c1nc1ccccc1c2=O	H37Rv					MIC	1 µg/mL
C=C1C(=O)[C@@]23[C@@H]4CC5=C(C(=O)CC5(C)C)[C@@](C)(O4)[C@@H]2CC[C@@H]1[C@H]3O	H37Rv			resazurin / absorbance		MIC	>50 µg/mL
CO[C@H]1/C=C/O[C@@]2(C)Oc3c(C)c(O)c4c(O)c(cc(O)c4c3C2=O)NC(=O)/C(C)=C\C=C\[C@H](C)[C@H](O)[C@@H](C)[C@@H](O)[C@@H](C)[C@H](OC(C)=O)[C@@H]1C	SOCCI I					MIC	0.02 µg/mL
CC1(C)OC2OC(C(CCO)NC3CC3)[C@@H](OCc3ccccc3)C2O1	H37Rv					MIC	50 µg/mL
O=C1c2cc(I)ccc2-n2c1nc1ccccc1c2=O	H37Rv					MIC	≤0.2 µg/mL
Cc1c(N2C[C@@H](N)C3(CC3)C2)c(F)c(N)c2c(=O)c(C(=O)O)cn(C3CC3)c12	23 strains (rifampin- isoniazid-susceptible)					MIC50	0.78 µg/mL
Cc1ccc2nc(SCC(=O)N/N=C/c3ccc(Cl)cc3)n(-c3ccccc3)c(=O)c2c1	H37Rv					MIC	>6.25 µg/mL
CC1CN(c2cc3c(cc2F)C(=O)c2nc4ccccc4c(=O)n2-3)CCN1	MDR 10038					MIC	5 µg/mL
Cn1cc(NC(=O)c2cc(NC(=O)c3cc(NC=O)cn3C)cn2C)cc1C(=O)NCCC(=N)N	H37Rv			BACTEC		MIC bound	≤12.8 µg/mL
NC(=O)c1cnccn1	TMC311		7 d			EC50	>800 µg/mL
O=C1c2cc(Cl)ccc2-n2c1nc1ccccc1c2=O	MDR 10038					MIC	1 µg/mL
CCCCCCCCCCCCNC(CCO)C1OC2OC(C)(C)OC2[C@H]1OCc1ccccc1	H37Rv					MIC	12.5 µg/mL
CO/C(=N\N=C\c1ccccc1F)c1ccncc1		0.5 µM		BACTEC		inhibition	0%
N/C(=N\N=C\c1cc(Cl)ccc1O)SCc1ccc(Br)cc1	H37Rv		14 d	broth dilution		MIC	16 µM
CCC1CN(c2c(F)cc3c(=O)c(C(=O)O)cn(C4CC4)c3c2OC)CCN1	51 (RFP-resistant)					MIC	1 µg/mL
NNC(=O)c1csnn1	H37Rv	12.5 µg/mL		BACTEC		inhibition	18%
Cc1cc(C)c2c(=O)n(CC(O)CN3CCCCC3)sc2n1	H37Rv					EC50	>12.5 µg/mL
Cc1ccc(O)c(C(=S)NCc2ccc(C(C)(C)C)cc2)c1	My 331/88					MIC	0.5 µg/mL
CN1c2ccc(C3N(C(=O)C(F)(F)F)C=CN3C(=O)C(F)(F)F)cc2Sc2cc(C3N(C(=O)C(F)(F)F)C=CN3C(=O)C(F)(F)F)ccc21	H37Rv			BACTEC		MIC bound	≤12.5 µg/mL
CC1COc2c(N3CCN(C)CC3)c(F)cc3c(=O)c(C(=O)O)cn1c23	36 isolates					MIC90	1.2 µg/mL
O=C(N/N=C/c1ccc(Cl)cc1Cl)C(O)C(O)C(O)C(O)CO	H37Rv	12.5 µg/mL		BACTEC		inhibition	-18%
Cc1ccc2nc(SCC(=O)N/N=C/c3ccccc3)n(-c3ccccc3)c(=O)c2c1	H37Rv					MIC	>6.25 µg/mL
CN(C)P1(N(C)C)=NP(c2ccccc2)(c2ccccc2)=NP(N(C)C)(N(C)C)=N1	H37Rv			BACTEC		MIC	≥128 µg/mL
CC1(C)CC(N=c2cc3n(-c4ccc(Cl)c(Cl)c4)c4ccccc4nc-3cc2Nc2ccc(Cl)c(Cl)c2)CC(C)(C)N1	H37Rv	0.005 µg/mL	inside macrophages		Macrophages	inhibition	95%
Cc1cccc2c(=O)n3c(nc12)C(=O)c1ccccc1-3	H37Rv					MIC	>5 µg/mL
CCCCCCCCCCCCNC(CCO)C1OC2OC(C)(C)OC2[C@H]1OC	H37Rv					MIC	12.5 µg/mL
CCn1cc(C(=O)O)c(=O)c2cc(F)c(-n3cccc3)cc21	64 isolates					MIC90	16 µg/mL
CCCCCCCCCCCCC1OC2OC(C)(C)OC2[C@@H]1OCc1ccccc1	H37Ra					MIC	12.5 µg/mL
CC1COc2c(N3CCN(C)CC3)c(F)cc3c(=O)c(C(=O)O)cn1c23	483-8					MIC	0.5 µg/mL
N/C(=N\N=C\c1cc(Br)ccc1O)SCc1ccc(Br)cc1	H37Rv		21 d	broth dilution		MIC	32 µM
Cc1c(N2C[C@@H](N)C3(CC3)C2)c(F)cc2c(=O)c(C(=O)O)cn([C@@H]3C[C@@H]3F)c12	51 (RFP-resistant)					MIC	0.2 µg/mL
Cc1cc(C)c2c(n1)S(=O)(=O)N(CC(=O)NC1CCCCC1)/C(=C(/O)c1ccccc1)C2=O	H37Rv					EC50	>12.5 µg/mL
O=C1c2ccccc2-n2c1nc1ncccc1c2=O	MDR 10038					MIC	1 µg/mL
C=C1C(=O)[C@@]23CC[C@@H]4[C@@](C)(CO)CCC[C@@]4(C)[C@@H]2CC[C@@H]1C3	H37Ra			resazurin / absorbance		MIC	25–50 µg/mL
Cc1ccc(NNC(=O)C(=O)OC2C(=O)OCC2O)cc1	H37Rv	12.5 µg/mL		BACTEC		inhibition	17%
CO[C@@H]1C(C(CCO)NCCCCCCCC/C=C/CCCCCCCCN)OC2OC(C)(C)OC21	H37Ra					MIC	25 µg/mL
CCN(CC)CCNc1ccc(O)c2sc3ccccc3c(=O)c12	H37Rv	12.5 µg/mL		BACTEC		inhibition	8%
C[C@H]1COc2c(N3CCN(C)CC3)c(F)cc3c(=O)c(C(=O)O)cn1c23	Strain 460					MIC	0.5 µg/mL
Cc1ccc2nc(SCC(=O)N/N=C/c3ccc(F)cc3)n(-c3ccccc3)c(=O)c2c1	H37Rv					MIC	>6.25 µg/mL
O=C1c2cc(F)ccc2-n2c1nc1c(F)cccc1c2=O	MDR 10038					MIC	<0.4 µg/mL
COc1ccc2c(c1)Sc1c(ccc3ccccc13)N2CCCN(C)C	H37Rv				VERO	MIC	3.13 µg/mL
Cc1ccc(O)c(C(=O)NCc2ccc(Cl)cc2)c1	My 331/88					MIC	62.5 µg/mL
CCCCCCCCCCCCCCCCCCNC(CCO)C1OC2OC(C)(C)OC2[C@@H]1OCc1ccccc1	H37Ra					MIC	12.5 µg/mL
CCc1ccccc1NC(=O)C(=O)C1C(=O)N(c2ccccc2)N=C1N	H37Rv			resazurin		MIC bound	>6.25 µg/mL
Cc1ccc(CS/C(N)=N/N=C/c2cc(Cl)ccc2O)cc1	H37Rv		14 d	broth dilution		MIC	32 µM
S=C1NC2=C(COC/C2=C/c2ccccc2Cl)C(c2ccccc2Cl)N1	H37Rv	12.5 µg/mL		BACTEC		inhibition	87%
CC1(C)CC(N=c2cc3n(-c4cc(Cl)cc(Cl)c4)c4ccccc4nc-3cc2Nc2cc(Cl)cc(Cl)c2)CC(C)(C)N1	TBRP171 (INH RMP-resistant)					MIC	0.03 µg/mL
CN(C)CCCNc1ccc2ncn3c4ccccc4c(=O)c1c23	H37Rv	12.5 µg/mL		BACTEC		inhibition	98%
N/C(=N\N=C\c1ccccc1)SCc1ccc(C(F)(F)F)cc1	H37Rv		21 d	broth dilution		MIC	62.5 µM
CCCCCCCNC(CCO)C1OC2OC(C)(C)OC2[C@@H]1OC	H37Ra					MIC	50 µg/mL
C/C(=N\NC(=S)N1CC2CCC(CC2)C1)c1cnccn1	H37Rv	12.5 µg/mL		BACTEC		inhibition	99.4%
CN(C)CCCN1c2ccccc2Sc2ccc(Cl)cc21	Isolate D (drug-resistant)					MBC	30 µg/mL
Cc1cc(C)c2c(=O)n(CC(O)CNCC(C)C)sc2n1	H37Rv					MIC	>12.5 µg/mL
N/C(=N\N=C\c1ccccc1O)SCc1cccc(Cl)c1	H37Rv		14 d	broth dilution		MIC	32 µM
C=C1C(=O)[C@]23[C@H](OC(C)=O)[C@H]1CC[C@H]2[C@@]1(C)[C@H](C[C@H]3OC(C)=O)C(C)(C)CC[C@H]1OC(C)=O	H37Ra			resazurin / absorbance		MIC	<1.56 µg/mL
NNC(=O)c1ccncc1	Isolate V					MIC	0.015 µg/mL
C[C@]1(COc2ccc(N3CCC(Oc4ccc(OC(F)(F)F)cc4)CC3)cc2)Cn2cc([N+](=O)[O-])nc2O1	31 strains (rifampicin-susceptible)					MIC90	0.012 µg/mL
O=C1C=C(Nc2ccccc2C(=O)c2ccccc2)c2ccccc2C1=O	H37Rv			resazurin		MIC bound	>6.25 µg/mL
C=C1C(=O)[C@]23[C@H](O)[C@H]1CC[C@H]2[C@@]1(C)[C@H](C[C@H]3OC(C)=O)C(C)(C)CC[C@H]1OC(C)=O	H37Rv			resazurin / absorbance		MIC	6.25–12.5 µg/mL

The first 7 rows once more:

| structure | strain | tested at | setting | read by | cell line | read-out | result |
|---|---|---|---|---|---|---|---|
| Cc1ccncc1C(=O)NN | H37Rv | 12.5 µg/mL |  | BACTEC |  | inhibition | 0% |
| CCCCCCCCCCCCCCCCNC(CCO)[C@H]1OC2OC(C)(C)OC2C2OC(C)(C)OC21 | H37Ra |  |  |  |  | MIC | 25 µg/mL |
| Cc1ccc(CS/C(N)=N/N=C/c2ccccc2)cc1 | H37Rv |  | 14 d | broth dilution |  | MIC | 32 µM |
| Cc1c(N2CC3CCCNC3C2)c(F)cc2c(=O)c(C(=O)O)cn([C@@H]3C[C@@H]3F)c12 | 44 (RFP-resistant) |  |  |  |  | MIC | 0.006 µg/mL |
| Cc1cc(C)c2c(=O)n(CC(O)CNc3ccc4c(c3)OCO4)sc2n1 | H37Rv | 12.5 µg/mL |  |  |  | inhibition | 93% |
| CC(C)(C)c1ccc(CNC(=S)c2ccccc2O)cc1 | My 331/88 |  |  |  |  | MIC | 1 µg/mL |
| N/C(=N\N=C\c1cc(Cl)ccc1O)SCc1ccc(F)cc1 | H37Rv |  | 21 d | broth dilution |  | MIC | 16 µM |

Lines come from different laboratories, so protocols vary. ECn: concentration that inhibits the pathogen or its effect by n%. Blank or dashed fields: not listed here. Inhibition is in % at the dose shown (toxicity tests: loss of growth or viability). MIC bound comes from a single tested concentration. a–b is a range or a potency band.